Source: ChEMBL document CHEMBL3988442, “University of Dundee, Small-Polar-MMV Screening Library” (2021).

Each number is a percent effect as filed. The controls that fix the scale are not given in the record; negative values are as filed. The entries come from a sample that favours strong results. Two or more numbers in one place are separate tests of the same structure; such repeats can differ widely.

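Growth of Mycobacterium tuberculosis over 4 days (cholesterol / DPPC medium with tyloxapol); the read-out is not stated. Concentration: 50 µM. Direction is inferred from retests: higher values go with more growth inhibition. About 69,000 compounds were tested under these conditions; 0.54% (about 370) showed 50% or more at least once.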

SMILES,effect
CC(Nc1cccc(COCc2ccco2)c1)C(=O)NC(N)=O (stereo not shown),11.79
CCOC(=O)c1c(NC(=O)CN2CCN(C(C)=O)CC2)sc(C)c1C,-13.33
CC(C)c1cc(=O)[nH]c(-n2nc(C3CC3)cc2N)n1,88.29
O=C(Nc1ccccn1)NC(CCCO)c1ccccc1 (stereo not shown),10.1
NCC(c1ccccc1)N1CCc2sccc2C1 (stereo not shown),11.32
O=S1(=O)CCC(CNc2cc(-c3ccccc3)nc3ccnn23)C1 (stereo not shown),-17.27
N#Cc1ccc(NC2CCN(c3ncccn3)CC2)cc1Cl,12.8
CC(C)NC(=O)NC(C)c1nc(-c2ccccc2)cs1 (stereo not shown),-4.727
Cc1nc(-c2nnc[nH]2)sc1C(=O)N1CCCC1Cn1cccn1 (stereo not shown),71.76 and -2.795
O=S(=O)(c1cccnc1)N1CCCC1COc1ccccc1 (stereo not shown),-5.574
COc1ccc(CCNC(=O)C(C)Nc2cccc(C)c2C)cc1 (stereo not shown),-18.87
CCCC1c2cccn2CCN1C(=O)Cn1cnc2sc(C)cc2c1=O (stereo not shown),56.68 and 18.73
CCNc1nnc(SCc2nnc(C(C)(C)C)o2)s1,-32.5
Fc1cccc(Cc2cncc(C3CCCN3C3CCOCC3)n2)c1 (stereo not shown),1.463 and -21.45
Cc1[nH]ncc1C(=O)N1CCOC(c2cccs2)C1 (stereo not shown),-2.124
O=C(NCC(F)F)c1ccc(S(=O)(=O)N2CCCC(O)C2)cc1 (stereo not shown),23.56
NC(=O)C1CCN(C(=O)NCc2ccc3c(c2)OCCO3)CC1,-12.44
CC1(C)Oc2ccc(NC(=O)c3ccc(=O)[nH]n3)cc2O1,1.414
CC(C)Cc1cc(C(=O)NC(C)C)[nH]n1,-3.424
CCC1CN(CCCNS(C)(=O)=O)c2ccccc2O1 (stereo not shown),-7.207
CN(C)c1nc2c(c(N(C)C)n1)CCN(C(=O)CN1CCC(O)CC1)C2,-11.77
CC(C1CC1)N(C)Cc1nnc(-c2ccc(Br)s2)o1 (stereo not shown),44.4 and 43.76
CC(C)OCc1noc(C2CCOC2)n1 (stereo not shown),-36.66
CCn1nnc2c1C(COCC(=O)N(C)C)CN(Cc1ccco1)C2.O=C(O)C(F)(F)F (stereo not shown),0.2022
COc1cccc(C(=O)Nc2cc(CC(C)C)nn2C)c1,-9.563
CN(Cc1cccc(F)c1)C(=O)c1ccncc1Cl,-8.195
Cc1nc(CNCC2CCCN2c2cccnn2)oc1C (stereo not shown),-10.24 and -19.35
Cc1c(C(=O)NC2CCCOC2)nnn1-c1ccccc1 (stereo not shown),-3.595
Cc1ccnc(N2Cc3cnn(Cc4ccc(F)cc4)c3C2)n1,13.16 and 18.82
CCCc1nn(Cc2csc(C(C)C)n2)c(=O)o1,53.39
CC(C)C(=O)NCCC(=O)N1CCN(c2ccccn2)CC1,6.863
Cc1ncc(-c2ccncc2)c(C2CCCN(C(=O)c3ccno3)C2)n1 (stereo not shown),-22.92 and -22.84
Cc1n[nH]c(C)c1CC(=O)N1CC[C@@](C)(O)[C@@H](Cc2ccccc2)C1,6.404
Cc1nccn1CCCn1cncc1-c1ccc2c(c1)CCC(C)N2C.Cl (stereo not shown),8.504 and 14.31
O=C(c1ccc(-n2cccn2)nc1)N1CCCN(c2cccnn2)CC1,6.166
CC(=O)Nc1ccc(SCC(O)COCc2ccccc2)cc1 (stereo not shown),6.236
COCCC(=O)N1CCC(Nc2ncc(Br)cn2)CC1,6.806
Cl.Fc1ccc(-c2cnc(C3CCCN3)cn2)cc1 (stereo not shown),20.32 and 8.44
N#Cc1nccnc1N1CCC(COCc2ccccc2)C1 (stereo not shown),37.28
CC(C)c1nccn1C1CCCN(C(=O)c2ccc3[nH]nnc3c2)C1 (stereo not shown),74.53
O=C(CC1CCC1)N1CCCC(CO)(CC2CC2)C1 (stereo not shown),-0.8156
O=C(Cn1ccc2ccccc21)N1CCC(Oc2ncccc2Br)CC1,18.87
CCc1nc(CN2CCCC(N(C)CCc3cccs3)C2)no1 (stereo not shown),-23.62
CC(C)c1cc(C(=O)N2CCN(Cc3ccsc3)CC2)n[nH]1,12.59
Cc1cnn(CCNCC(O)c2ccc3c(c2)OCCO3)c1 (stereo not shown),-5.602
CCc1[nH]c2c(CNc3nccc(N)n3)cc(F)cc2c1C,17.4
CCc1[nH]c2c(CNc3nc(C)cc(NC)n3)cc(C)cc2c1C,80.48
CNC(=O)CCS(=O)(=O)Cc1cc(Cl)c2c(c1)OCCO2,3.991
CCOc1ccccc1CN1CCc2nc3ccsc3c(=O)n2CC1.Cl,-2.728
CN(C)Cc1ccnc(NS(=O)(=O)CCc2ccccc2)c1,23.67
CC(C)Cc1noc(-c2ccc(NCc3noc(C(C)C)n3)nc2)n1,6.974
CC(CNC(=O)c1c[nH]nn1)Oc1ccccc1Br (stereo not shown),9.18 and 7.025
COC(C)(C)CC(C)NC(=O)Nc1ccccn1 (stereo not shown),1.651
CCOc1ccc(C(F)(F)F)cc1NCc1cc(C)on1,14.38
COCCN1CCC(CNCc2c[nH]nc2C(C)(C)C)CC1,46.05
CCN(CC)CCc1nc2c([nH]1)CC(c1ccc(Cl)cc1)CNC2=O (stereo not shown),-2.004
CS(=O)(=O)c1ccc(-c2cnc(C3CCCN3)cn2)cc1.Cl (stereo not shown),-9.002 and 10.32
Cc1nc(C2CCCN2Cc2cc(Cl)c3c(c2)OCCO3)no1 (stereo not shown),57.08
CCc1nc(C)c(C(=O)NCC2COc3cc(OC)ccc3C2)o1 (stereo not shown),8.941
FC(F)(F)c1ccc2nc([C@H]3CCN(C4CCOCC4)C3)[nH]c2c1,19.74
NS(=O)(=O)c1ccc(CC(=O)N2CCCC(n3cccn3)C2)cc1 (stereo not shown),18.39
COc1cn(-c2ccccc2)nc1C(=O)NCCCN1CCCC(C)C1 (stereo not shown),12.76
Cc1noc(C(C)Nc2ccc3oc(=O)[nH]c3c2)n1 (stereo not shown),-16.35
Cc1nc(CN2CCCC(CCc3ccc(F)c(F)c3)C2)c[nH]1 (stereo not shown),26.07
CCOc1ccc(Cl)cc1CCNC(=O)c1ccc(=O)n(C)c1,13.65
O=C(c1cc(Br)ccc1Cl)N1CCN(Cc2ccco2)CC1,-2.507

Once more, the final 8:

CCc1nc(C)c(C(=O)NCC2COc3cc(OC)ccc3C2)o1 (stereo not shown) gave 8.941%.
FC(F)(F)c1ccc2nc([C@H]3CCN(C4CCOCC4)C3)[nH]c2c1 gave 19.74%.
NS(=O)(=O)c1ccc(CC(=O)N2CCCC(n3cccn3)C2)cc1 (stereo not shown) gave 18.39%.
COc1cn(-c2ccccc2)nc1C(=O)NCCCN1CCCC(C)C1 (stereo not shown) gave 12.76%.
Cc1noc(C(C)Nc2ccc3oc(=O)[nH]c3c2)n1 (stereo not shown) gave -16.35%.
Cc1nc(CN2CCCC(CCc3ccc(F)c(F)c3)C2)c[nH]1 (stereo not shown) gave 26.07%.
CCOc1ccc(Cl)cc1CCNC(=O)c1ccc(=O)n(C)c1 gave 13.65%.
O=C(c1cc(Br)ccc1Cl)N1CCN(Cc2ccco2)CC1 gave -2.507%.